Anti-infective test results gathered from many reports (values: NIAID ChemDB through PubChem).

All rows: growth or infection tests; agent: Mycobacterium tuberculosis

MIC50, MIC90 and the like: level of inhibition, or share of isolates inhibited. Two numbers with a dash give a range or band. ECn is the concentration giving n% inhibition of infection, replication or growth. Percent inhibition refers to the dose given; in toxicity tests it is the harm to the cells. Lines come from different laboratories, so protocols vary. MIC bound: limit read from a one-dose screen. An empty or dashed field is not shown.

structure,strain or isolate,cell line,changes,setting,method,dose,read-out,result
NNC(=O)c1ccncc1,AZD5847-resistant 8.8,,T460C Cys154Arg,,,,MIC,0.06 µg/mL
CCOC(=O)N1CCN(c2cc(-c3ccccc3)c3ccc(N)nc3n2)CC1,H37Rv,,,,,12.5 µg/mL,inhibition,70%
CN(C)C(=O)c1ccc(SC(=S)NCc2ccccc2)cc1,H37Rv,,,,BACTEC,128 µg/mL,inhibition,100%
O=C(Nc1cc(Br)c(O)c(Br)c1)c1cncc(Cl)n1,H37Rv,,,,,6.25 µg/mL,inhibition,69%
CO[C@H]1/C=C/O[C@@]2(C)Oc3c(C)c(O)c4c(O)c(c(/C=N/N5CCN(C)CC5)c(O)c4c3C2=O)NC(=O)/C(C)=C\C=C\[C@H](C)[C@H](O)[C@@H](C)[C@@H](O)[C@@H](C)[C@H](OC(C)=O)[C@@H]1C,23 strains (rifampicin-resistant),,,,,,MIC90,100 µg/mL
CC1=CC=CN2CCC(=O)N=C12,H37Rv,,,,resazurin,6.25 µg/mL,inhibition,5%
CCn1cc(C(=O)O)c(=O)c2cc(F)c(-n3cccc3)cc21,,,,pH 6.8,,,EC50,<3 µg/mL
CC(=O)Oc1ccccc1C(=O)Nc1ncc([N+](=O)[O-])s1,Haarlem spoligotype 2,,,,visual reading,,MIC,16 µg/mL
CCOC(=O)c1cn(CC)c2c(cc([N+](=O)[O-])c3cccnc32)c1=O,H37Rv,,gyrA mutation G88C,,,,MIC90,>50 µM
NC(=O)c1ncn([C@@H]2O[C@H](CO)[C@@H](O)[C@H]2O)c1N,H37Rv,,,,BACTEC,,MIC bound,>12.5 µg/mL
CC(C)(C)c1cnc(C(=O)Nc2cc(Br)ccc2O)cn1,H37Rv,,,,,6.25 µg/mL,inhibition,0%
O=c1cc(-c2ccccc2)c2ccc(N3CCNCC3)nc2[nH]1,H37Rv,,,,,12.5 µg/mL,inhibition,0%
CCCCNC(=O)Oc1ccc(C2=Nc3c(cc(NC(=O)OCC)nc3N)N[C@H]2C)cc1,H37Rv,,,,,,MIC,>12.5 µg/mL
CO[C@H]1/C=C/O[C@@]2(C)Oc3c(C)c(O)c4c(O)c(c(/C=N/N(OC)OC)c(O)c4c3C2=O)NC(=O)/C(C)=C\C=C\[C@H](C)[C@H](O)[C@@H](C)[C@@H](O)[C@@H](C)[C@H](OC(C)=O)[C@@H]1C,H37Rv,,,,,,EC50,5 µg/mL
CO[C@H]1/C=C/O[C@@]2(C)Oc3c(C)c(O)c4c(O)c(c(/C=N/N5CCN(C)CC5)c(O)c4c3C2=O)NC(=O)/C(C)=C\C=C\[C@H](C)[C@H](O)[C@@H](C)[C@@H](O)[C@@H](C)[C@H](OC(C)=O)[C@@H]1C,H37Ra,,,,resazurin,,MIC,0.03 µM
C=C1C(=O)OC2[C@@H]1[C@@H](OC(=O)/C(C)=C/C)C[C@@]1(CO1)[C@H]1[C@@H](OC(C)=O)C=C(C)[C@@]21O,H37Rv,,,,BACTEC,12.8 µg/mL,inhibition,23%
COc1cc(NC(=O)c2cncc(Cl)n2)cc(OC)c1,H37Rv,,,,,6.25 µg/mL,inhibition,11%
CC(=O)OC1CCC2(C)C(CC(=O)OC3C2CCC2(C)C(OC(C)=O)CCC32)C1,H37Rv,,,,BACTEC,,MIC bound,>12.5 µg/mL
CCC1=NN(c2ccc(CNC(=O)c3c(C(F)(F)F)nc4ccccn34)cc2F)CCN1S(=O)(=O)C(F)(F)F,,,,,GFP,,EC50,0.0012 µM
Cc1ccc(NCCC2CCCN3CCCCC23)c2c(=O)c3ccccc3sc12,H37Rv,,,,BACTEC,12.5 µg/mL,inhibition,100%
CCOC(=O)N1CCN(c2ccc3c(-c4ccccc4)cc(OC)nc3n2)CC1,H37Rv,,,,,,EC50,<12.5 µg/mL
CCOC(=O)/C=C1\CC2c3cc(OC)c(OC)cc3CCN2CC1CC,H37Rv,,,,BACTEC,,MIC,≥12.5 µg/mL
Cc1cnc(NC(=O)c2cnccn2)s1,H37Rv,,,,,6.25 µg/mL,inhibition,10%
CO[C@H]1/C=C/O[C@@]2(C)Oc3c(C)c(O)c4c(O)c(c(C=Nc5ccccc5)c(O)c4c3C2=O)NC(=O)/C(C)=C\C=C\[C@H](C)[C@H](O)[C@@H](C)[C@@H](O)[C@@H](C)[C@H](OC(C)=O)[C@@H]1C,H37Rv,,,,,,EC50,5 µg/mL
O=C(O)c1cn(C2CC2)c2cc(N3CCNCC3)c(F)cc2c1=O,30 isolates/HIV+,,,,,,MIC50,>16 µg/mL
N=C1/C(=C/c2ccccc2O)C(=O)NN1C(=O)c1ccncc1,H37Rv,,,,resazurin,6.25 µg/mL,inhibition,98%
CCOC(=O)N1CCN(c2cc(-c3ccccc3)c3ccc(NC(C)=O)nc3n2)CC1,H37Rv,,,,,12.5 µg/mL,inhibition,0%
CCC1CN(c2c(F)cc3c(=O)c(C(=O)O)cn(C4CC4)c3c2OC)CCN1,71 (RFP-resistant),,,,,,MIC,1 µg/mL
CCn1cc(C(=O)O)c(=O)c2ccc(C)nc21,H37Rv,,gyrA mutation A90V gyrB mutation Q540V,,,,MIC90,>50 µM
CO/N=C/c1c2c(O)c3c(O)c(C)c4c(c3c1O)C(=O)[C@@](C)(O/C=C/[C@H](OC)[C@@H](C)[C@@H](OC(C)=O)[C@H](C)[C@H](O)[C@H](C)[C@@H](O)[C@@H](C)/C=C/C=C(/C)C(=O)N2)O4,H37Rv,,,,,,EC50,0.05 µg/mL
CCc1nc2cc(Cl)c(C)cn2c1C(=O)NCc1ccc(N2CCN(S(=O)(=O)C(F)(F)F)C=N2)c(F)c1,,,,,GFP,,EC50,0.0055 µM
COc1cccc(NC(=O)c2cnc(C(C)(C)C)cn2)c1,H37Rv,,,,,6.25 µg/mL,inhibition,53%
Cc1ccc(NCCN(C)C)c2c(=O)c3ccc(O)cc3sc12,H37Rv,,,,BACTEC,,MIC bound,≤12.5 µg/mL
COc1cc(NC(=O)c2cnc(C(C)(C)C)cn2)cc(OC)c1,H37Rv,,,,,6.25 µg/mL,inhibition,5%
CO[C@H]1/C=C/O[C@@]2(C)Oc3c(C)c(O)c4c(O)c(/c(=C/NN=O)c(O)c4c3=C2O)NC(=O)/C(C)=C\C=C\[C@H](C)[C@H](O)[C@@H](C)[C@@H](O)[C@@H](C)[C@H](OC(C)=O)[C@@H]1C,H37Rv,,,,,,EC50,>5 µg/mL
CCOc1ccc2cc(-n3nncc3COc3nc(-c4ccccc4)sc3C(=O)O)c(=O)oc2c1,H37Rv,,,,resazurin,,MIC,25.49 µM
CCn1cc(C(=O)O)c(=O)c2ccc(-c3cn[nH]c3C)nc21,H37Rv,,,,BACTEC,12.5 µg/mL,inhibition,45%
COc1ccc2c(-c3ccccc3)cc(N)nc2n1,H37Rv,,,,,12.5 µg/mL,inhibition,54%
Cc1c2oc3c(C)ccc(C(=O)NCCc4ccco4)c3nc-2c(C(=O)NCCc2ccco2)c(N)c1=O,H37Rv,,,,BACTEC,,MIC bound,>12.5 µg/mL
CCOC(=O)Nc1cc2c(c(N)n1)N=C(CN(C)c1ccc(OC)cc1)CN2,H37Rv,,,,,,MIC,>12.5 µg/mL
CC(C)(C)c1ncc(C(=O)Nc2nccs2)nc1Cl,H37Rv,,,,,6.25 µg/mL,inhibition,42%
CCOc1ccc2cc(-n3nncc3COc3nc(-c4ccncc4)sc3C=O)c(=O)oc2c1,H37Rv,,,,resazurin,,MIC,26.28 µM
NNC(=O)c1ccncc1,H37Rv,,,,resazurin,,MIC,0.6 µM
CO[C@H]1/C=C/O[C@@]2(C)Oc3c(C)c(O)c4c(O)c(c(/C=N/NCCO)c(O)c4c3C2=O)NC(=O)/C(C)=C\C=C\[C@H](C)[C@H](O)[C@@H](C)[C@@H](O)[C@@H](C)[C@H](OC(C)=O)[C@@H]1C,H37Rv,,,,,,EC50,1 µg/mL
CCOC(=O)N1CCN(c2cc(-c3ccccc3)c3ccc(=O)[nH]c3n2)CC1,H37Rv,,,,,,EC50,>12.5 µg/mL
CCN(CC)CCCC(C)Nc1ccnc2cc(Cl)ccc12,H37Ra,,,,resazurin,,MIC,2612 µM
O=C([C@@H](O)CO)N1CC=C(c2c(F)cc(N3C[C@H](COc4ccon4)OC3=O)cc2F)CC1,H37Rv Beijing,,,,broth dilution,,MIC,0.25 µg/mL
CCC1CN(c2c(F)cc3c(=O)c(C(=O)O)cn([C@@H]4C[C@@H]4F)c3c2OC)CCN1,47 (RFP-resistant),,,,,,MIC,1 µg/mL
Cl.Cl.Cl.c1ccc(-c2cc(N3CCNCC3)nc3ncccc23)cc1,H37Rv,,,,,12.5 µg/mL,inhibition,0%
CCOC(=O)C(CC(C)C)NC(=O)c1cc([N+](=O)[O-])c(C)c2c1Nc1c(c(C)c3oc(=O)c(C)nc3c1C(=O)NC(CC(C)C)C(=O)OCC)O2,H37Rv,,,,BACTEC,,MIC bound,>12.5 µg/mL
CC1COc2c(N3CCN(C)CC3)c(F)cc3c(=O)c(C(=O)O)cn1c23,H37Rv (ATCC 35811),,,,broth dilution,,MIC,0.5–1 µg/mL
CCOc1ccc2cc(-n3nncc3COc3nc(-c4ccccc4)sc3C(=O)OC)c(=O)oc2c1,H37Rv,,,,resazurin,,MIC,24.79 µM
CO[C@H]1/C=C/O[C@@]2(C)Oc3c(C)c(O)c4c(=O)c(c5oc6cc(N7CCN(CC(C)C)CC7)cc(=O)c6nc5c4c3=C2O)NC(=O)/C(C)=C\C=C\[C@H](C)[C@H](O)[C@@H](C)[C@@H](O)[C@@H](C)[C@H](OC(C)=O)[C@@H]1C,22 strains (rifampicin-susceptible),,,,,,MIC90,≤0.05 µg/mL
CC(C)(C)c1ncc(C(=O)Nc2cc(Br)c(O)c(Br)c2)nc1Cl,H37Rv,,,,,6.25 µg/mL,inhibition,72%
CCc1nc2ncc(Cl)cn2c1C(=O)NCc1ccc(N2CCN(S(=O)(=O)CC(C)C)C=N2)cc1,,,,,GFP,,EC50,0.012 µM
CCOc1ccccc1-c1nc2c(s1)C(=O)c1ccccc1C2=O,H37Rv,VERO,,,BACTEC,,MIC,1.6 µg/mL
CC[C@H]1OC(=O)[C@H](C)[C@@H](O[C@H]2C[C@@](C)(OC)[C@@H](O)[C@H](C)O2)[C@H](C)[C@@H](O[C@@H]2O[C@H](C)C[C@H](N(C)C)[C@H]2O)[C@](C)(OC)C[C@@H](C)C(=O)[C@H](C)[C@@H](O)[C@]1(C)O,30 isolates/HIV+,,,,,,MIC90,4 µg/mL
CO[C@H]1/C=C/O[C@@]2(C)Oc3c(C)c(O)c4c(O)c(c(C=O)c(O)c4c3C2=O)NC(=O)/C(C)=C\C=C\[C@H](C)[C@H](O)[C@@H](C)[C@@H](O)[C@@H](C)[C@H](OC(C)=O)[C@@H]1C,H37Rv,,,,,,EC50,0.1 µg/mL
CCc1nc2c(F)cc(Cl)cn2c1C(=O)NCc1ccc(N2CCN(S(=O)(=O)C(F)(F)F)C=N2)c(F)c1,,,,,GFP,,EC50,0.0026 µM
COc1cccc(C2SCC(=O)N2c2nncs2)c1,H37Rv,,,,BACTEC,,MIC bound,>12.5 µg/mL
O=C(O)c1cn(C2CC2F)c2c(Cl)c(N3CC4CCCNC4C3)c(F)cc2c1=O,H37Rv (RFP-susceptible),,,,,,MIC,0.025 µg/mL
Cc1ccc(Nc2nc(NS(=O)(=O)c3cc(C)c(Cl)cc3S)n[nH]2)cc1,H37Rv,,,,BACTEC,12.5 µg/mL,inhibition,22%
COC(=O)c1sc(-c2cccnc2)nc1OCc1cnnn1-c1cc2ccc(O)cc2oc1=O,H37Rv,,,,resazurin,,MIC,26.18 µM
Cc1ccc(NC(=S)NC(=O)C(C)Oc2ccccc2)cc1Cl,H37Rv,,,,BACTEC,12.5 µg/mL,inhibition,98%
CO[C@H]1/C=C/O[C@@]2(C)Oc3c(C)c(O)c4c(O)c(c(/C=N/N5CCC(N6CCCCC6)CC5)c(O)c4c3C2=O)NC(=O)/C(C)=C\C=C\[C@H](C)[C@H](O)[C@@H](C)[C@@H](O)[C@@H](C)[C@H](OC(C)=O)[C@@H]1C,H37Rv,,,,,,EC50,0.5 µg/mL
CC1(C)SC(C)(C)N(C=O)C1C(=O)[O-].[Na+],H37Rv,,,,BACTEC,,MIC bound,>12.5 µg/mL
COc1c(N2C[C@@H]3CCCN[C@@H]3C2)c(F)cc2c(=O)c(C(=O)O)cn(C3CC3)c12,H37Ra,,,,resazurin,,MIC,0.2 µM
C1=CC(=NN=C(c2ccccc2)c2ccccc2)C=CC1=NN=C(c1ccccc1)c1ccccc1,H37Rv,,,,BACTEC,,MIC bound,>12.5 µg/mL
CO[C@H]1/C=C/O[C@@]2(C)Oc3c(C)c(O)c4c(O)c(c(/C=N/OCCN5CCOCC5)c(O)c4c3C2=O)NC(=O)/C(C)=C\C=C\[C@H](C)[C@H](O)[C@@H](C)[C@@H](O)[C@@H](C)[C@H](OC(C)=O)[C@@H]1C,H37Rv,,,,,,EC50,0.5 µg/mL
CCCN(CCC)c1ccc(N=Nc2ccccc2C(=O)O)cc1,H37Rv,VERO,,,,,MIC,3.13 µg/mL
O=Cc1sc(-c2ccccc2)nc1OCc1cnnn1-c1cc2ccc(O)cc2oc1=O,H37Rv,,,,resazurin,,MIC,56 µM
O=C(O)c1cccc([N+](=O)[O-])c1C(=O)Nc1ncc([N+](=O)[O-])s1,H37Rv,,,,BACTEC,12.5 µg/mL,inhibition,12%
CCOc1ccc2cc(-n3nncc3COc3nc(-c4ccccn4)sc3C(=O)OC)c(=O)oc2c1,H37Rv,,,,resazurin,,MIC,12.72 µM